From patent publication US5629198A (priority 1991, dated 1997)

How the values were obtained:
[1] = system: HTLV-IIIB in human peripheral blood lymphocytes (PBL); assay: p24 produced in HIV-infected PBL system (Test Example 7); assay type: cell-based, HIV (HTLV-IIIB); conditions: 200 μg/ml
Description: (§1) The anti-HIV effects of test substances on human peripheral blood lymphocytes infected with HIV were determined.
After blood is collected from a vein by a syringe whose interior wall is wetted with heparin, PBL is separated from the blood with Ficol. After this PBL cell is inoculated on a 25-cm^2 culture flask containing 10 ml of a RPMI 1640 medium (including IL-2) added with 20% of a fetal bovine serum so as to contain 7×10^5 cells/ml therein, 40 μl (1 mg/ml) of PHA are added to culture the cells for 2 days. After 2 days, the cells are washed. Thereafter, they are used in assaying the anti-HIV effects of the test substances as PBL cells in an HIV-uninfected system for part of them, and in an HIV-infected system for the remainder. The PBL cells are inoculated on a 25-cm^2 culture flask added with 5 ml of the above medium so as to contain 2×10^6 cells therein. Then, 500 μl (final concentration: 200 μg/ml) of S-HSA-EDC-Hemin are given thereto so as to conduct culture at 37° C. in the presence of 5% CO2, thereby assaying the cytotoxic effect of the test substance. […] After 4 days, the number of cells are counted to calculate the number of HIV envelope protein gp120 positive cells, analysis making use of FACS and the quantity of P24 protein produced.

[2] = system: human peripheral blood lymphocytes (PBL), activated; assay: Cytotoxic effect on activated PBL (Test Example 2); assay type: cell-based; conditions: 24 hours then 2 days, 4320 min
Description: The killing effect and cytotoxic effect of a test substance were determined using human peripheral blood lymphocytes and MOLT-4 cells.
Human peripheral blood lymphocytes (PBL) were separated by a Ficol. Part of them were activated and the remainder was used without activation. The activation of PBL was conducted by culturing PBL (7×10^5 /ml/10 ml) for 4 days in the presence of IL-2 and phytohaemagglutinin (PHA) in a 25-cm^2 culture flask. After the activated PBL was adjusted to 4×10^5 /ml/10 ml and placed in a 25-cm^2 culture flask, 0.5 ml of the specimen solution was given in such a manner that the final concentration of S-HSA-EDC-Hemin reached a predetermined concentration, thereby culturing the cells for 24 hours. Thereafter, S-HSA-EDC-Hemin was removed, and the cells were cultured further for 2 days to count the number of living cells by the Trypan Blue dye exclusion method. With respect to the nonactivated PBL, PBL separated by Ficol was cultured for 4 days in the presence of S-HSA-EDC-Hemin in the various concentrations to count the number of living cells.

[3] = system: human peripheral blood lymphocytes infected with HIV; assay: Living cells in HIV-infected PBL system (Test Example 7); assay type: cell-based; conditions: 200 μg/ml
Description: as §1
After blood is collected from a vein by a syringe whose interior wall is wetted with heparin, PBL is separated from the blood with Ficol. After this PBL cell is inoculated on a 25-cm^2 culture flask containing 10 ml of a RPMI 1640 medium (including IL-2) added with 20% of a fetal bovine serum so as to contain 7×10^5 cells/ml therein, 40 μl (1 mg/ml) of PHA are added to culture the cells for 2 days. After 2 days, the cells are washed. Thereafter, they are used in assaying the anti-HIV effects of the test substances as PBL cells in an HIV-uninfected system for part of them, and in an HIV-infected system for the remainder. The PBL cells are inoculated on a 25-cm^2 culture flask added with 5 ml of the above medium so as to contain 2×10^6 cells therein. Then, 500 μl (final concentration: 200 μg/ml) of S-HSA-EDC-Hemin are given thereto so as to conduct culture at 37° C. in the presence of 5% CO2, thereby assaying the cytotoxic effect of the test substance. With respect to the infected system on the other hand, 0.5 ml of HTLV-IIIB (10^7 TCID50 /ml) obtained from a culture supernatant of an HIV-persistently infected strain, MOLT-4/HTLV-IIIB is inserted in the PBL cells to culture them for 2 days. Thereafter, the cells are washed, and then inoculated on a 25-cm^2 culture flask added with 5 ml of the medium so as to contain 2×10^6 cells therein. In the same manner as described above, S-HSA-EDC-Hemin is given thereto, thereby conducting culture at 37° C. in the presence of 5% CO2. After 4 days, the number of cells are counted to calculate the number of HIV envelope protein gp120 positive cells, analysis making use of FACS and the quantity of P24 protein produced.

S--HSA--EDC-Hemin: complex of succinylated human serum albumin and EDC-Hemin
Amount of p24 produced ([1]; day 0 of culture): 70 ng/mL
Amount of p24 produced ([1]; day 4 of culture (untreated 279)): 8 ng/mL
living cells (control 100%) ([2]; 37.9 μg/ml): 88%
living cells (control 100%) ([2]; 75.8 μg/ml): 91%
living cells (control 100%) ([2]; 151.6 μg/ml): 81%
living cells (control 100%) ([2]; 227.4 μg/ml): 77%
living cells (control 100%) ([2]; 303.2 μg/ml): 29%
living cells in HIV-infected system, % of the control ([3]; after 4 days): 32%
Total number of living cells, infected system ([3]; day 0 of culture): 2.0 ×10^6
Total number of living cells, infected system ([3]; day 4 of culture (untreated 15.3)): 4.9 ×10^6
